Laboratory results published in article PMC9143577 (Molecules, 2022).

Test: general procedure: Fmoc solid-phase peptide synthesis; aldehyde resin, reductive amination with palmitylamine; DIPCDI/HOBt
Details: whole synthesis, scale of the general procedure 1.0 mmol resin, split over syringes, TFA salt (2TFA)

**Q.** Which outcome does the source give for C15H31C(O)-Lys-(Ala)3-Lys-NHC16H33.2TFA here?
**A.** purification by HPLC was not possible due to solubility problems

**Q.** With C15H31C(O)-Lys-(Ala)4-Lys-NHC16H33.2TFA as the substance, how does the outcome read?
**A.** purification by HPLC was not possible due to solubility problems
